# Measured values published in patent US8835507B2, “Adamantane derivatives possessing anti-viral and anti-microbial activity” (priority 2012, dated 2014).
# Key:
# [1] = tested on: Vaccinia virus, WR strain; settings: TC50/IC50
SMILES,SI (Tacaribe virus),SI (Pichinde virus),Therapeutic Index [1]
C(CNC12CC3CC(CC(C3)C1)C2)NC12CC3CC(CC(C3)C1)C2 [Compound 6],5,1,17.45
ClN(CCN(Cl)C12CC3CC(CC(C3)C1)C2)C12CC3CC(CC(C3)C1)C2 [Compound 7],17,0,9.96
"NC(=O)c1ncn([C@@H]2O[C@H](CO)[C@@H](O)[C@H]2O)n1 [Ribivirin, reference compound]",,,>3.5
